Compound potency records, mixed from different reports. Data source: NIAID ChemDB in PubChem.

Common to all: tests in culture; agent: Mycobacterium tuberculosis

Inhibition is in % at the dose shown (toxicity tests: loss of growth or viability). Rows are shuffled and stem from different studies. a–b is a range or a potency band. An empty or dashed field is not shown. MIC bound comes from a single tested concentration. ECn is the concentration giving n% inhibition of infection, replication or growth.

structure	read-out	setting	changes	cell line	tested at	read by	strain	value
COc1cccc(NC(=O)CC(=O)N2NC(c3ccccc3)C(N=Nc3cccc(C(=O)O)c3)C2=O)c1	inhibition				12.5 µg/mL	BACTEC	H37Rv	0%
CCOc1ccc2c(NN)ccnc2c1	MIC			VERO			H37Rv	>12.5 µg/mL
N#CC1(C2SCCS2=O)C2=C(C(=O)c3ccccc3C2=O)N2CCCC21	inhibition				0.5 µM	BACTEC		0%
CCOc1ccc2ccccc2c1C(=O)N[C@@H]1C(=O)N2[C@@H]1SC(C)(C)[C@@H]2C(=O)O	MIC						Isolate 1	>16 µg/mL
CC1CN(c2cc3c(=O)c(C(=O)O)c4n(c3cc2[N+](=O)[O-])CS4)CC(C)O1	MIC		MDR-TB			agar	H37Rv	3.99 µM
Cc1ccccc1Sc1ccc([N+](=O)[O-])c2cccnc12	MIC						H37Rv	40 µg/mL
Cc1ccc(-n2c(SCc3ccccc3)nnc2-c2ccc(N)cc2)cc1	inhibition				6.25 µg/mL		H37Rv	50–59%
O=[N+]([O-])c1ccc(Sc2ccc(Cl)cc2Cl)c2ncccc12	MIC						H37Rv	4 µg/mL
CC(=O)NC1C(O)C(O)C(CO)OC1n1nc(SCc2ccccc2)c(=O)[nH]c1=O	MIC bound					resazurin	H37Rv	>6.25 µg/mL
Cn1c(SCc2ccc(Cl)cc2Cl)nnc1-c1ccc(N=Cc2ccc(O)cc2)cc1	inhibition				6.25 µg/mL		H37Rv	<50%
Cc1cc2nc3ccc(N=Nc4ccc(N(C)C)cc4)cc3n(-c3ccccc3)c-2cc1=N	MIC bound					BACTEC	H37Rv	≤12.5 µg/mL
NCCCN1c2ccccc2Sc2ccccc21	MIC					resazurin	XDR-926	16 µg/mL
CC1(C)S[C@@H]2[C@H](NC(=O)[C@H](N)c3ccc(O)cc3)C(=O)N2[C@H]1C(=O)O	MIC						Isolate 4	>16 µg/mL
CCCOc1c(C(C)=O)cc(N)c2nccc(CC)c12	MIC						H37Rv	>6.25 µg/mL
CC#CC#C/C=C1\C=CC2(CCCCO2)O1	MIC					BACTEC	H37Rv	≥12.5 µg/mL
Cc1ccc(-n2c(SCc3ccccc3)nnc2-c2ccc(N=Cc3ccc(O)cc3)cc2)cc1	EC50						H37Rv	>6.25 µg/mL
CO[C@H]1/C=C/O[C@@]2(C)Oc3c(C)c(O)c4c(O)c(c(/C=N/N5CCN(C)CC5)c(O)c4c3C2=O)NC(=O)/C(C)=C\C=C\[C@H](C)[C@H](O)[C@@H](C)[C@@H](O)[C@@H](C)[C@H](OC(C)=O)[C@@H]1C	MIC						TN792	8 µg/mL
CC1=C[C@@H]2c3cccc4[nH]cc(c34)C[C@H]2N(C)C1	inhibition				12.5 µg/mL	BACTEC	H37Rv	10%
Nc1nc(NC(=O)OCc2ccccc2)cc(Cl)c1[N+](=O)[O-]	EC50						H37Rv	>12.5 µg/mL
Cn1c(SCc2ccc(Cl)cc2Cl)nnc1-c1ccc(N=Cc2c(Cl)cccc2Cl)cc1	inhibition				6.25 µg/mL		H37Rv	<50%
CC(C)(C)NC(=O)C1c2ccccc2CCN1c1cc2c(=O)c(C(=O)O)c3n(c2cc1F)CS3	MIC		MDR-TB			agar	H37Rv	3.24 µM
Cc1cn2c(C(=O)NCc3ccc(N4CCC(c5ccc(OC(F)(F)F)cc5)CC4)cc3)c(C)nc2s1	MIC		QcrB7 S182P			resazurin / fluorescence	H37Rv	0.3 µM
CN[C@@H]1[C@@H](O)[C@@H](O[C@@H]2[C@@H](O)[C@H](O[C@H]3O[C@H](CN)CC[C@H]3N)[C@@H](N)C[C@H]2N)OC[C@]1(C)O	Median MIC						H37Rv	4 µg/mL
O=C(O)c1c2n(c3cc([N+](=O)[O-])c(N4CCN(Cc5ccc6c(c5)OCO6)CC4)cc3c1=O)CS2	MIC					agar	H37Rv	0.79 µM
O=[N+]([O-])c1ccc(N=Nc2c(Cl)c(O)c3ccccc3c2O)nc1	MIC					BACTEC	H37Rv	≥12.5 µg/mL
C[C@H]1COc2c(N3CCN(C)CC3)c(F)cc3c(=O)c(C(=O)O)cn1c23	MIC						099-3	0.5 µg/mL
CO[C@H]1/C=C/O[C@@]2(C)Oc3c(C)c(O)c4c(O)c(c(/C=N/N5CCN(C)CC5)c(O)c4c3C2=O)NC(=O)/C(C)=C\C=C\[C@H](C)[C@H](O)[C@@H](C)[C@@H](O)[C@@H](C)[C@H](OC(C)=O)[C@@H]1C	MIC					BACTEC	CSU H37Rv	0.049 µg/mL
CO[C@H]1/C=C/O[C@@]2(C)Oc3c(C)c(O)c4c(O)c(c(/C=N/N5CCN(C6CCCC6)CC5)c(O)c4c3C2=O)NC(=O)/C(C)=C\C=C\[C@H](C)[C@H](O)[C@@H](C)[C@@H](O)[C@@H](C)[C@H](OC(C)=O)[C@@H]1C	Median MIC						H37Rv	0.006 µg/mL
O=C(O)c1c2n(c3cc(F)c(N4CCSCC4)cc3c1=O)CS2	MIC					agar	H37Rv	4.43 µM
Cc1cn2c(C(=O)NCc3ccc(N4CCOCC4)cc3)c(C)nc2s1	MIC					resazurin / fluorescence	H37Rv	0.463 µM
O=C1NNC2NC(=O)C3(NN2C1=O)c1ccccc1-c1ccccc13	MIC bound					BACTEC	H37Rv	>12.5 µg/mL
NC(=O)c1cnccn1	MIC						TB206	400 µg/mL
O=C(O)c1c2n(c3cc([N+](=O)[O-])c(N4CCN(C(=O)c5ccco5)CC4)cc3c1=O)CS2	MIC		MDR-TB			agar	H37Rv	1.71 µM
N#Cc1nc(CC(=O)c2ccc(Cl)cc2Cl)c(CC(=O)c2ccc(Cl)cc2Cl)nc1C#N	MIC					BACTEC	H37Rv	≥12.5 µg/mL
C[C@@H](O)[C@H]1C(=O)N2C(C(=O)O)=C(SCCN=CN)C[C@H]12	MIC						Isolate 4	4 µg/mL
COc1ccc(/C=N/Nc2ccnc3ccc(C4CCCCC4)cc23)c2ccccc12	MIC			VERO			H37Rv	3.13 µg/mL
C[C@@H]1CN(c2c(F)c(N)c3c(=O)c(C(=O)O)cn(C4CC4)c3c2F)C[C@H](C)N1	Median MIC						H37Rv	0.12 µg/mL
COc1ccccc1C(=O)N(Cc1ccccc1)c1ccc(Cl)c(C(=O)OC(C)C)c1	MIC bound					BACTEC	H37Rv	>12.5 µg/mL
COc1ccc(/C=N/Nc2cc(C)nc3ccc(C4CCCCC4)cc23)c2ccccc12	MIC			VERO			H37Rv	1.56 µg/mL
Cc1ccc(C)c(Oc2ccc([N+](=O)[O-])c3cccnc23)c1	MIC						H37Rv	1 µg/mL
CO[C@@]1(NC(=O)Cc2cccs2)C(=O)N2C(C(=O)O)=C(COC(N)=O)CS[C@@H]21	MIC						Isolate 5	>16 µg/mL
Cc1ccc(S(=O)(=O)NC(=O)Oc2nc3cc(Cl)ccc3o2)cc1	MIC bound					BACTEC	H37Rv	>12.5 µg/mL
Cc1cc(Oc2ccc([N+](=O)[O-])c3cccnc23)ccc1Cl	MIC						H37Rv	10 µg/mL
COc1ccc2c(N/N=C/c3ccc(OC)c4ccccc34)ccnc2c1	MIC			VERO			H37Rv	0.78 µg/mL
C=C1C(=O)OC2CC1C(OC(C)=O)CC1(C)OC1CCC1(C)OC1CCC2(C)O	inhibition				6.25 µg/mL	resazurin	H37Rv	7%
NC1CCN(c2c(F)cc3c(=O)c(C(=O)O)cn(C4CC4)c3c2Cl)C1	inhibition	inside macrophages		Macrophages	0.1 µg/mL		H37Rv	70%
O=C(Nc1cccc2ccc(C3CCCCC3)nc12)C(F)(F)F	MIC						H37Rv	>6.25 µg/mL
C=CCn1c(SCc2ccccc2)nnc1-c1ccc(N)cc1	inhibition				6.25 µg/mL		H37Rv	<50%
CCOC(=O)Nc1cc(NCC(=O)c2ccc(C(F)(F)F)cc2)c([N+](=O)[O-])c(N)n1	EC50						H37Rv	>12.5 µg/mL
NC[C@@H]1O[C@H](O[C@H]2[C@@H](O)[C@H](O[C@@H]3[C@@H](O)[C@H](N)C[C@H](N)[C@H]3O[C@H]3O[C@H](CO)[C@@H](O)[C@H](O)[C@H]3N)O[C@@H]2CO)[C@H](N)[C@@H](O)[C@@H]1O	Mean MIC						H37Ra	4.5 µg/mL
C[C@@H]1CN[C@@H](C)CN1C(=S)S	inhibition				12.5 µg/mL	BACTEC	H37Rv	16%
COc1c(N2CCNC(C)C2)c(F)cc2c(=O)c(C(=O)O)cn(C3CC3)c12	MIC						263 strains	2 µg/mL
O=[N+]([O-])c1ccc(S(=O)(=O)C2NC=CS2)c2ncccc12	MIC						H37Rv	40 µg/mL
CN(C)CCCCNc1ccc(NCCCCN(C)C)c2c1C(=O)c1c(O)ccc(O)c1C2=O	inhibition				12.5 µg/mL	BACTEC	H37Rv	7%
CC[C@H]1OC(=O)[C@H](C)[C@@H](O[C@H]2C[C@@](C)(OC)[C@@H](O)[C@H](C)O2)[C@H](C)[C@@H](O[C@@H]2O[C@H](C)C[C@H](N(C)C)[C@H]2O)[C@](C)(OC)C[C@@H](C)C(=O)[C@H](C)[C@@H](O)[C@]1(C)O	Median MIC						H37Rv	32 µg/mL
CCOC(=O)Nc1cc(NC/C(=C\O)CN(C)c2ccccc2)c([N+](=O)[O-])c(N)n1	EC50						H37Rv	>12.5 µg/mL
COC(=O)c1ccc(N(C)CCC(=O)CNc2nc(N)[nH]c(=O)c2[N+](=O)[O-])cc1	inhibition				12.5 µg/mL	BACTEC	H37Rv	11%
C=CCn1c(SCc2ccc(Cl)cc2Cl)nnc1-c1ccc(N)cc1	EC50						H37Rv	>6.25 µg/mL
O=C(O)c1c2n(c3cc([N+](=O)[O-])c(N4CCC(n5c(=O)[nH]c6ccc(Cl)cc65)CC4)cc3c1=O)CS2	MIC					agar	H37Rv	0.73 µM
COCCCn1c(-c2cc(OC)c(OC)c(OC)c2)nn2c(=O)c3ccccc3nc2c1=O	inhibition				12.5 µg/mL	BACTEC	H37Rv	37%
NNC(=O)c1ccncc1	MIC					resazurin	STB-9102	0.0625 µg/mL
NCC[C@H](O)C(=O)N[C@@H]1C[C@H](N)[C@@H](O[C@H]2O[C@H](CN)[C@@H](O)[C@H](O)[C@H]2O)[C@H](O)[C@H]1O[C@H]1O[C@H](CO)[C@@H](O)[C@H](N)[C@H]1O	MIC					broth dilution / resazurin	MDR9	1 µg/mL
CCc1ccnc2c([N+](=O)[O-])cc(C(C)=O)c(OC(C)C)c12	MIC						Ethambutol-resistant	50 µg/mL
Cc1cn2c(C(=O)NCc3cccc(F)c3)c(C)nc2s1	MIC					luminescence	H37Rv	>100 µM
CN1N=C(N)c2cn([C@@H]3O[C@H](COP(=O)(O)O)[C@@H](O)[C@H]3O)c3ncnc1c23	inhibition				12.5 µg/mL	BACTEC	H37Rv	48%
COc1c(C(C)=O)cc(N)c2nc(C(C)C)ccc12	MIC						H37Rv	>6.25 µg/mL
CCOC(=O)Nc1cc(N)c2ncn(-c3ccccc3)c2n1	EC50						H37Rv	<12.5 µg/mL
CCN(CC)CCNc1ccc2nc(C)n3c4ccc(O)cc4c(=O)c1c23.Cl	MIC bound					BACTEC	H37Rv	≤12.5 µg/mL
CC(C)(C)c1ccc2cccc([N+](=O)[O-])c2n1	MIC						H37Rv	>6.25 µg/mL
Cc1c(N)nc(C(CC(N)=O)NCC(N)C(N)=O)nc1C(=O)NC(C(=O)NC(C)C(O)CC(=O)NC(C(=O)NC(OC1OC(C)C(N)C(O)C1O)C(O)c1nc(-c2nc(C(=O)NCCC[S+](C)C)cs2)cs1)C(C)O)C(OC1OC(CO)C(O)C(O)C1OC1OC(CO)C(O)C(OC(N)=O)C1O)c1cnc[nH]1.Cl.Cl.Cl.[Cl-]	MIC						EMB-R	0.4 µg/mL
Cc1cn2c(C(=O)NCc3ccc(C(F)(F)F)cc3)c(C)nc2s1	MIC		QcrB7 S182P			resazurin / fluorescence	H37Rv	4.7 µM
Nc1ccc(SC2NC=CS2)c2ncccc12	MIC						H37Rv	1 µg/mL
Cc1nn(C(=O)c2ccncc2)c(C)c1N=Nc1ccc(-c2ccc(N)cc2)cc1	MIC bound					BACTEC	H37Rv	>12.5 µg/mL
Cc1cn2c(C(=O)NCc3ccc(N4CCOCC4)c(F)c3)c(C)nc2s1	MIC		QcrB1 A317V			resazurin / fluorescence	H37Rv	12.5 µM
Cc1ccc(Oc2ccc([N+](=O)[O-])c3cccnc23)cc1	MIC						H37Rv	100 µg/mL
CCOc1ccc2c(NN)cc(C)nc2c1	inhibition			VERO	12.5 µg/mL		H37Rv	98%
CCOC(=O)Nc1cc2nc(C)cnc2c(NC(=O)OCC)n1	EC50						H37Rv	>12.5 µg/mL
N[C@@H]1CONC1=O	Mean MIC						H37Ra	25 µg/mL

For reference, 10 entries again:

structure	read-out	setting	changes	cell line	tested at	read by	strain	value
CCOc1ccc2c(NN)ccnc2c1	MIC			VERO			H37Rv	>12.5 µg/mL
CC(=O)NC1C(O)C(O)C(CO)OC1n1nc(SCc2ccccc2)c(=O)[nH]c1=O	MIC bound					resazurin	H37Rv	>6.25 µg/mL
O=C(O)c1c2n(c3cc(F)c(N4CCSCC4)cc3c1=O)CS2	MIC					agar	H37Rv	4.43 µM
Cc1c(N)nc(C(CC(N)=O)NCC(N)C(N)=O)nc1C(=O)NC(C(=O)NC(C)C(O)CC(=O)NC(C(=O)NC(OC1OC(C)C(N)C(O)C1O)C(O)c1nc(-c2nc(C(=O)NCCC[S+](C)C)cs2)cs1)C(C)O)C(OC1OC(CO)C(O)C(O)C1OC1OC(CO)C(O)C(OC(N)=O)C1O)c1cnc[nH]1.Cl.Cl.Cl.[Cl-]	MIC						EMB-R	0.4 µg/mL
NC1CCN(c2c(F)cc3c(=O)c(C(=O)O)cn(C4CC4)c3c2Cl)C1	inhibition	inside macrophages		Macrophages	0.1 µg/mL		H37Rv	70%
CCOC(=O)Nc1cc(NCC(=O)c2ccc(C(F)(F)F)cc2)c([N+](=O)[O-])c(N)n1	EC50						H37Rv	>12.5 µg/mL
CCN(CC)CCNc1ccc2nc(C)n3c4ccc(O)cc4c(=O)c1c23.Cl	MIC bound					BACTEC	H37Rv	≤12.5 µg/mL
C[C@@H]1CN(c2c(F)c(N)c3c(=O)c(C(=O)O)cn(C4CC4)c3c2F)C[C@H](C)N1	Median MIC						H37Rv	0.12 µg/mL
COc1cccc(NC(=O)CC(=O)N2NC(c3ccccc3)C(N=Nc3cccc(C(=O)O)c3)C2=O)c1	inhibition				12.5 µg/mL	BACTEC	H37Rv	0%
C[C@H]1COc2c(N3CCN(C)CC3)c(F)cc3c(=O)c(C(=O)O)cn1c23	MIC						099-3	0.5 µg/mL